# Experimental data from PMC10368727, “Sequestration of histidine kinases by non-cognate response regulators establishes a threshold level of stimulation for bacterial two-component signaling” (Nature Communications, 2023).
# T1: phosphorylated, GFP-tagged HK PhoR (cytosolic catalytic domain) (M. tuberculosis, UniProt P71815)
# T1 construct: also called PhoR-GFP; PhoR~P
# T1 sequence: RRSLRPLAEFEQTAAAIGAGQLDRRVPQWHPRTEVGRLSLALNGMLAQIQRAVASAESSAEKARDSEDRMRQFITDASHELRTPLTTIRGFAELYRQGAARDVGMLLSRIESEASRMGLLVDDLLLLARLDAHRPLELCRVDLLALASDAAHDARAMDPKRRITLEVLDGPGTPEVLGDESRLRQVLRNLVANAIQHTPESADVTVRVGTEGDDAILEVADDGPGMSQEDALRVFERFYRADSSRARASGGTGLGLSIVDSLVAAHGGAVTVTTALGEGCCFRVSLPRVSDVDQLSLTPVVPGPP
# B1: response regulator DevR (natural protein)
# chain: not shown
# Molecular target: T1, phosphorylated, GFP-tagged HK PhoR …
# Details: both partners purified
binder,measurement,value
B1,Kd,154 nM
